The supplement of paper PMC9931576
Human monoclonal antibodies against the spike receptor-binding domain (heavy:light variable regions). IC50 against pseudoviruses bearing the spike of naturally observed variants; lower = stronger; >10 µg/ml means not reached at the top dose. No active / inactive call. The stated detection limit is 0.0005 µg/ml; values near or below 0.001 µg/ml lie at the floor of the assay.

B1: BD56-1718 (protein)
chain 1: EVQLVESGGGFVQPGGSLRLSCAASEFTFSSYDMHWVRQPTGKGLEWVSTIGTAGDTYYADSVKGRFTMSRENAKNSLYLQMNTLRAGDTAVYYCARDGGHGYNYGYFDLWGRGTLVTVSS
chain 2: DIQMTQSPSSLSASVGDRVTITCRASQSIRRYLNWYQLKPGKAPNLLIFGASNLHSGVPSRFSGSGSGTDFTLTISSLQPEDFATYSCQQSYSTSYTFGQGTKLEVK
B2: BD56-1720 (protein)
chain 1: EVQLVESGGGLVQPGGSLRLSCAASGFTFSSYDMHWVRQVTGKGLEWVSTIGTSGDTYYPDSVKGRFTISRENAKNSLYLQMSSLRAGDSAVYFCSRVTYDSRGYHWYLDLWGRGTRVTVSS
chain 2: DIQMTQSPSSLSASVGDRVTITCRTSQSINKYLNWYQQKPGKAPKLLIYGASFSLQSGVPSRFSGSGSGTEFTLTISNLQPEDCATYYCQQSYTNPLYTFGQGTKLEIK
B3: BD56-1699 (protein)
chain 1: QVQLVQSGAEVKKPGSSVKVSCKASGGTFSSYTISWVRQAPGQGLEWMGRIIPILDITNYAQKFQGRVTITADKSTSTAYMELSSLRSEDTAVYYCARDHPNYYDSSGLASDYFDYWGQGTLVTVSS
chain 2: QSVLTQPPSVSGAPGQRVTISCTGSSSNIGAGYDVHWYQQLPGIAPKLLIYGNNNRPSGVPDRFFGSKSGTSASLAITGLQAEDEADYYCLSYDSSLSGSVFGGGTKLTVL
B4: BD56-1721 (protein)
chain 1: QVQLVQSGAEMKKPGSSVKVSCKASGGTFSSYTISWVRQAPGQGLEWMGRIIPILGVANYAQKFQGRVTITADKSTATAYLELSSLRSEDTAVYYCARVAPMATNDWYFDLWGRGTLVTVSS
chain 2: QSVLTQPPAVSGAPGQRVTISCSGSGSNIGAGYDVHWYQQLPGTAPKLLIYVNRNRPSGVPDRFSGSKSGTSASLAITGLQAEDEADYYCQSYDSSLSGSVFGGGTKLTVL
B5: BD56-1717 (protein)
chain 1: QVQLEQSGAEVRKPGSSVMVSCKASGGTFSNYAVSWVRQAPGQGLEWMAGIVPVFDTTYYAQKFQGRVTITADVSTNTVYINVNSLRPDDTAVYYCAGHSSSPSASYSYSYYMDVWGKGTTVTVSS
chain 2: QSALTQPASVSGSPGQSITISCTGTSSDVANYDLVSWYQQHPGKAPKLIIYDFTKRPSGVSSRFSASKSGNTASLTISGLQAEDEADYYCCAYGGSSTWVFGGGTKVTAL
B6: BD56-1698 (protein)
chain 1: QVQLVQSGAEVKKPGSSVKVSCKASGGTFSSYTFSWVRQAPGQGLEWMGRIIPILGIANYAQNFQVRVTITADKSTSTAYMELSSLTSEDTAVYYCATLRGYSGYGANEFFDYWGQGTLVTVSS
chain 2: QSVLTQPPSVSGAPGQRVTISCTGSNSNIGAGYDVHWYQQLPGTAPKLLININSNRPLGVPDRFSGSKSGTSASLAIAGLQVEDEADYYCQSYDSSLSDWVFGGGTKLTVL

molecular target: SARS-CoV-2 Omicron BA.1 spike pseudovirus; experiment: pseudovirus neutralization IC50; higher = weaker neutralization
Method: (§1)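 Single-round VSV luciferase pseudovirus mixed with antibody dilutions for 1 h and put on Huh-7 cells for about a day; IC50 from the dose curve.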

Binder | pseudovirus neutralization IC50
B1 | > 10 µg/mL
B2 | > 10 µg/mL
B3 | 0.128 µg/mL
B4 | 0.31 µg/mL
B5 | 0.000756 µg/mL
B6 | 0.0396 µg/mL

molecular target: SARS-CoV-2 Omicron BA.2 spike pseudovirus; experiment: as above
Method: as §1

Binder | pseudovirus neutralization IC50
B1 | > 10 µg/mL
B2 | > 10 µg/mL
B3 | 0.146 µg/mL
B4 | 0.197 µg/mL
B5 | 0.000934 µg/mL
B6 | 0.0111 µg/mL

molecular target: SARS-CoV-2 Omicron BA.2.75 spike pseudovirus; experiment: as above
Method: as §1

Binder | pseudovirus neutralization IC50
B1 | > 10 µg/mL
B2 | > 10 µg/mL
B3 | 0.317 µg/mL
B4 | 0.353 µg/mL
B5 | 0.000716 µg/mL
B6 | 0.0262 µg/mL

molecular target: SARS-CoV-2 Omicron BA.5 spike pseudovirus; experiment: as above
Method: as §1

Binder | pseudovirus neutralization IC50
B1 | > 10 µg/mL
B2 | > 10 µg/mL
B3 | > 10 µg/mL
B4 | > 10 µg/mL
B5 | 2.88 µg/mL
B6 | 1.56 µg/mL

molecular target: SARS-CoV-2 Omicron BQ.1.1 spike pseudovirus; experiment: as above
Method: as §1

Binder | pseudovirus neutralization IC50
B1 | > 10 µg/mL
B2 | > 10 µg/mL
B3 | > 10 µg/mL
B4 | > 10 µg/mL
B5 | 3.45 µg/mL
B6 | > 10 µg/mL

molecular target: SARS-CoV-2 Omicron XBB spike pseudovirus; experiment: as above
Method: as §1

Binder | pseudovirus neutralization IC50
B1 | > 10 µg/mL
B2 | > 10 µg/mL
B3 | > 10 µg/mL
B4 | > 10 µg/mL
B5 | > 10 µg/mL
B6 | 2.63 µg/mL

molecular target: SARS-CoV-2 early D614G spike pseudovirus; experiment: as above
Method: as §1

Binder | pseudovirus neutralization IC50
B1 | > 10 µg/mL
B2 | > 10 µg/mL
B3 | 0.688 µg/mL
B4 | 0.207 µg/mL
B5 | 0.0012 µg/mL
B6 | 0.0411 µg/mL
